Compound potency records, mixed from different reports. Data source: NIAID ChemDB in PubChem.

Shared fields: growth or infection tests; species: HIV-1

Two numbers with a dash give a range or band.

| structure | conditions | changes | strain or isolate | measure | cells | method | value |
|---|---|---|---|---|---|---|---|
| Cc1cn([C@H]2C=C[C@@H](CO)O2)c(=O)[nH]c1=O | - | - | - | EC50 | MT-4 | p24 | 0.15 µM |
| CN1C(C(=O)Nc2ccccn2)=C(O)c2ccccc2S1(=O)=O | - | - | MN | EC50 | Jurkat cells | p24 | >50 µM |
| CC(C)C1=C2[C@H]3CC[C@@H]4[C@@]5(C)CC[C@H](OC(=O)[C@H]6C[C@@H](C(=O)O)C6(C)C)C(C)(C)[C@@H]5CC[C@@]4(C)[C@]3(C)CC[C@@]2([C@@H](O)CNCC(C)(C)NC(=O)c2ccc(N)nc2)CC1=O | - | - | 92HT599 | EC50 | MT-2 | p24 / ELISA | <1 µM |
| C/C=C/CSc1cc(NC(=S)c2ccsc2C)ccc1Cl | - | RT-Y181C | NL4-3 | EC50 | CEM + CEM-SS | p24 | 0.5 µM |
| C[C@@H](Cn1cnc2c(N)nc(N)nc21)OCP(=O)(O)O | - | - | IIIB | EC50 | MT-4 | cytopathic effect | 7.4 µM |
| CC(C)C1=C2[C@H]3CC[C@@H]4[C@@]5(C)CC[C@H](OC(=O)[C@H]6C[C@@H](C(=O)O)C6(C)C)C(C)(C)[C@@H]5CC[C@@]4(C)[C@]3(C)CC[C@@]2([C@@H](O)CNC(=O)c2cnn3cccnc23)CC1=O | - | - | 92HT599 | EC50 | MT-2 | p24 / ELISA | <1 µM |
| CCc1c(Cc2cccc3ccccc23)n2c(nc1=O)SCC2OC | - | - | IIIB | EC50 | MT-4 | cytopathic effect / MTT | >100 µM |
| Cn1nc(NS(C)(=O)=O)c2c(Cl)ccc(-n3c([C@H](Cc4cc(F)cc(F)c4)NC(=O)Cn4nc(C5CC5)c5c4C(F)(F)[C@@H]4C[C@H]54)nc4nc(OCCC(F)(F)F)ccc4c3=O)c21 | - | - | NL4-3 | EC50 | MT-2 | luciferase | 0.000014 µM |
| Cc1ccc2c(c1)c1ccc(C)cc1c1ccc(CCCCCN3C(=O)CCC3=O)cc21 | - | - | IIIB | EC50 | MT-4 | cytopathic effect | 30 µM |
| CCN(CC)CCNc1ccnc(NCCCNC(=O)c2ccc(C(=O)NCCCNc3nccc(NCCN(CC)CC)n3)cc2)n1 | 6 d | - | MN | EC50 | H9 | ELISA | 0.05–0.15 µM |
| Nc1nc2c(ncn2C[C@@H](CF)OCP(=O)(O)O)c(=O)[nH]1 | - | - | IIIB | EC50 | MT-4 | cytopathic effect | 3.9 µM |
| Cn1nc(NS(C)(=O)=O)c2c(Cl)ccc(-n3c([C@H](Cc4cc(F)cc(F)c4)NC(=O)Cn4nc(C5CC5)c5c4C(F)(F)[C@@H]4C[C@H]54)nc4nc(OCCC(C)(F)F)ccc4c3=O)c21 | - | - | NL4-3 | EC50 | MT-2 | luciferase | 0.000027 µM |
| CC(C)(C)NC(=O)[C@H]1CCCN1C(=O)[C@H](Cc1ccccc1)N(O)C(=O)[C@H](Cc1ccccc1)NC(=O)OC(C)(C)C | - | - | IIIB | EC50 | CEM | p24 | 0.452 µM |
| CCOCn1c(Cc2ccccc2)c(-c2ccccc2)c(=O)[nH]c1=O | - | - | - | EC50 | MT-4 | ELISA / antigen | 7 µM |
| C[N+]1(C)CC2c3cc4c5c6c3-c3c(cc7c8c3C63C[N+](C)(C)CC36C3=C5C(C4)Cc4ccc5cc(c-8c6c5c43)C7)C2C1 | - | - | IIIB | EC50 | CEM | cytopathic effect | >25 µM |
| CCOC(=O)[C@H](C)NP(=O)(OC[C@@H]1OC[C@H](n2cnc3c(N)nc(N)nc32)O1)Oc1ccccc1 | - | - | LAI | EC90 | PBMC | RT activity | 1.5 µM |
| CCCCCCCCCCCCCCCCOCC(COP(=O)([O-])OCC[NH2+]C(C)C)OCC | - | - | IIIB | EC50 | CEM + CEM-SS | syncytia | >6 µM |
| Nc1ncnc2c1ncn2[C@H]1CC[C@@H](CO)O1 | - | - | IIIB | EC50 | ATH8 | cytopathic effect / trypan blue | <5 µM |
| CCc1c(Cc2cc(C)cc(C)c2)nc2n(c1=O)C(OCCO)CS2 | - | - | IIIB | EC50 | MT-4 | cytopathic effect / MTT | >100 µM |
| Nc1ncc2ncn(C[C@@H](CF)OCP(=O)(O)O)c2n1 | - | - | IIIB | EC50 | MT-4 | cytopathic effect | >300 µM |
| Cc1cn([C@@H]2O[C@H](COC(c3ccccc3)(c3ccccc3)c3ccccc3)C3OC32)c(=O)[nH]c1=O | - | - | IIIB | EC50 | H9 | antigen | >1000 µM |
| Cc1cn([C@H]2C[C@H](N=[N+]=[N-])[C@@H](CO)O2)c(=O)[nH]c1=O | - | - | IIIB | EC50 | MT-4 | MTT | 0.01323 µM |
| C#CCOCN1C=CC(=O)NS1(=O)=O | - | - | - | EC50 | MT-4 | cytopathic effect / MTT | >400 µg/mL |
| CC(C)CCNc1ccnc(NCCCNC(=O)c2ccc(C(=O)NCCCNc3nccc(NCCC(C)C)n3)cc2)n1 | - | - | IIIB | EC50 | H9 | syncytia / ELISA | >6.3 µM |
| Nc1nc(N)c2ncn(C[C@@H](CO)OCP(=O)(O)O)c2n1 | - | - | IIIB | EC50 | MT-4 | cytopathic effect | ≥62 µM |
| CC1=CC(=O)N(Cc2ccccc2)S(=O)(=O)N1COCC[Si](C)(C)C(C)(C)C | - | - | - | EC50 | MT-4 | cytopathic effect / MTT | >400 µg/mL |
| CCc1c(Cc2ccccc2)n2c(nc1=O)SCC2CBr | - | - | IIIB | EC50 | MT-4 | cytopathic effect / MTT | >100 µM |
| Cc1ccccc1S(=O)(=O)N1C[C@@H](O)[C@@H](Cc2ccccc2)N(Cc2ccc(O)cc2)C(=O)N1Cc1ccc(O)cc1 | - | - | - | EC50 | MT-4 | cytopathic effect / MTT | 0.238 µM |
| CCCCCCCCCCCCCC(=O)OC[C@@H]1C=C[C@H](n2cc(C)c(=O)[nH]c2=O)O1 | - | - | - | EC90 | MT-4 | p24 | 1.1 µM |
| O=c1[nH]cnc2c1ncn2O[C@H]1CO[C@@H](CO)O1 | - | - | - | EC50 | MT-4 | - | >100 µg/mL |
| CC(C)C1=C2[C@H]3CC[C@@H]4[C@@]5(C)CC[C@H](OC(=O)[C@H]6C[C@@H](C(=O)O)C6(C)C)C(C)(C)[C@@H]5CC[C@@]4(C)[C@]3(C)CC[C@@]2(CCNCC2(N)COC2)CC1=O | - | - | 92HT599 | EC50 | MT-2 | p24 / ELISA | <1 µM |
| Nc1nc(N)c2ncn(C[C@H](CO)OCP(=O)(O)O)c2n1 | - | - | IIIB | EC50 | MT-4 | cytopathic effect | 25 µM |
| Cc1cn([C@@H]2O[C@H](COC(c3ccccc3)(c3ccccc3)c3ccccc3)[C@@H](F)[C@H]2N=[N+]=[N-])c(=O)[nH]c1=O | - | - | IIIB | EC50 | H9 | antigen | >1000 µM |
| Nc1nc(NC2CC2)c2ncn([C@H]3CO[C@@H](CO)O3)c2n1 | - | - | LAI | EC50 | PBMC | RT activity | 1.8 µM |
| Cc1cn2c(nc1=O)OC1[C@H]2O[C@H](COC(c2ccccc2)(c2ccccc2)c2ccccc2)[C@H]1O | - | - | IIIB | EC50 | H9 | antigen | >1000 µM |
| C#CCOCN1C=C(C#N)C(N)=NS1(=O)=O | - | - | - | EC50 | MT-4 | cytopathic effect / MTT | >400 µg/mL |
| Cc1c(O)cccc1C(=O)N(O)[C@@H](Cc1ccccc1)C(=O)N1CCC[C@@H]1C(=O)NC(C)(C)C | - | - | IIIB | EC50 | CEM | p24 | 0.71 µM |
| O=C(/C=C/C1=CC2C=Cc3cc(O)c(O)cc3OC2C(O)=C1)OC(Cc1ccc(O)c(O)c1)C(=O)O | - | - | IIIB | EC50 | MT-4 | p24 | 0.649–4.28 µg/mL |
| CC(C)(C)NC(=O)[C@H]1CCCN1C(=O)[C@H](Cc1ccccc1)N(O)C(=O)[C@H](Cc1ccccc1)NC(=O)OCC1c2ccccc2-c2ccccc21 | - | - | IIIB | EC50 | CEM | p24 | 0.098 µM |
| CCc1c(OC)nc(OC)nc1C(=O)c1ccccc1 | - | - | - | EC50 | - | - | 3.15 µM |
| Cc1cn([C@H]2C=C[C@@H](CO)O2)c(=O)[nH]c1=O | - | - | - | EC50 | MT-4 | - | 0.05 µM |
| CCCNc1nc(NCCCNC(=O)c2cccc(C(=O)NCCCNc3nc4c(c(NCCC)n3)CC=CC4)c2)nc2c1CC=CC2 | - | - | IIIB | EC50 | H9 | syncytia / ELISA | 2.5 µM |
| Nc1nc2c(ncn2O[C@H]2CO[C@@H](CO)O2)c(=O)[nH]1 | - | - | - | EC50 | MT-4 | - | >100 µg/mL |
| CC1=CC(=O)N(COCC[Si](C)(C)C(C)(C)C)S(=O)(=O)N1COCC[Si](C)(C)C(C)(C)C | - | - | - | EC50 | MT-4 | cytopathic effect / MTT | >400 µg/mL |
| OC[C@@H]1OC[C@@H](On2cnc3c(Cl)ncnc32)O1 | - | - | - | EC50 | MT-4 | - | >100 µg/mL |
| C[C@H](Cn1cnc2c(N)ncnc21)OCP(=O)(O)O | - | - | IIIB | EC50 | C8166 | p24 / ELISA | 0.21 µg/mL |
| Cc1cn([C@@H]2O[C@H](COC(c3ccccc3)(c3ccccc3)c3ccccc3)[C@@H](F)[C@H]2F)c(=O)[nH]c1=O | - | - | IIIB | EC50 | H9 | antigen | >1000 µM |
| CCN(CC)CCNc1ccnc(NCCCNC(=O)c2cccc(C(=O)NCCCNc3nccc(NCCN(CC)CC)n3)c2)n1 | 6 d | - | MN | EC50 | H9 | ELISA | 0.05–0.15 µM |
| Nc1ncc2ncn(C[C@H](CF)OCP(=O)(O)O)c2n1 | - | - | IIIB | EC50 | MT-4 | cytopathic effect | >300 µM |
| CCOC(=O)[C@H](C)NP(=O)(OC[C@@H]1OC[C@H](n2cnc3c(NC4CC4)nc(N)nc32)O1)Oc1ccccc1 | - | - | LAI | EC90 | PBMC | RT activity | 0.08 µM |
| CC(C)C1=C2[C@H]3CC[C@@H]4[C@@]5(C)CC[C@H](OC(=O)[C@H]6C[C@@H](C(=O)O)C6(C)C)C(C)(C)[C@@H]5CC[C@@]4(C)[C@]3(C)CC[C@@]2([C@@H](O)CNC(=O)c2ccc(S(C)(=O)=O)cc2)CC1=O | - | - | 92HT599 | EC50 | MT-2 | p24 / ELISA | <1 µM |
| OC[C@H]1O[C@H](On2cnc3c(Cl)ncnc32)CS1 | - | - | - | EC50 | MT-4 | - | >100 µg/mL |
| C=C(C)[C@@H]1CC[C@]2(COC(=O)c3cccnc3)CC[C@]3(C)[C@H](CC[C@@H]4[C@@]5(C)CC[C@H](OC(=O)c6cccnc6)C(C)(C)[C@@H]5CC[C@]43C)[C@@H]12 | - | - | EVK | EC50 | MT-4 | p24 | 0.02 µg/mL |
| CC(C)C1=C2[C@H]3CC[C@@H]4[C@@]5(C)CC[C@H](OC(=O)[C@H]6C[C@@H](C(=O)O)C6(C)C)C(C)(C)[C@@H]5CC[C@@]4(C)[C@]3(C)CC[C@@]2(CC(=O)NCC(C)(C)NC(=O)c2ccc(OCCN3CCOCC3)cc2)CC1=O | - | - | 92HT599 | EC50 | MT-2 | p24 / ELISA | <1 µM |
| CC(=O)OCCOCN1C=CC(N)=NS1(=O)=O | - | - | - | EC50 | MT-4 | cytopathic effect / MTT | >400 µg/mL |
| Cc1cn([C@@H]2O[C@H](CO)[C@@H](O)[C@@H]2F)c(=O)[nH]c1=O | - | - | IIIB | EC50 | H9 | antigen | >1000 µM |
| CC(C)C(NC(=O)OCc1ccccc1)C(=O)N[C@H](CC[C@H](O)[C@H](Cc1ccccc1)NC(=O)C(NC(=O)OCc1ccccc1)C(C)C)Cc1ccccc1 | - | - | IIIB | EC50 | MT-4 | - | >100 µM |
| CCN(CC)CCNc1nc(NCCCNC(=O)c2cccc(C(=O)NCCCNc3nc4c(c(NCCN(CC)CC)n3)CC=CC4)c2)nc2c1CC=CC2 | - | - | IIIB | EC50 | H9 | syncytia / ELISA | 0.125 µM |
| Nc1ncnc2c1ncn2O[C@H]1CO[C@@H](CO)O1 | - | - | - | EC50 | MT-4 | - | >100 µg/mL |
| CCc1c(Cc2ccccc2)nc2n(c1=O)C(OCCO)CS2 | - | - | IIIB | EC50 | MT-4 | cytopathic effect / MTT | >100 µM |
| Cc1cn([C@@H]2O[C@H](COC(c3ccccc3)(c3ccccc3)c3ccccc3)C[C@H]2F)c(=O)nc1N | - | - | IIIB | EC50 | H9 | antigen | >1000 µM |
| CC(C)C1=C2[C@H]3CC[C@@H]4[C@@]5(C)CC[C@H](OC(=O)[C@H]6C[C@@H](C(=O)O)C6(C)C)C(C)(C)[C@@H]5CC[C@@]4(C)[C@]3(C)CC[C@@]2([C@@H](O)CNC(=O)c2ccc(N3CCOCC3)cc2)CC1=O | - | - | 92HT599 | EC50 | MT-2 | p24 / ELISA | <1 µM |
| CC(C)(C)NC(=O)[C@H]1CCCN1C(=O)[C@H](Cc1ccccc1)N(O)C(=O)[C@H](Cc1ccccc1)NC(=O)OCc1ccccc1 | - | - | IIIB | EC50 | CEM | p24 | 0.371 µM |
| CCOC(=O)c1cn(C)c2cc(N3CCN(c4ccccn4)CC3)c(N)cc2c1=O | - | - | HXBc2 | EC50 | Jurkat cells | RT activity | >1 µM |
| O=c1[nH]cnc2c1ncn2O[C@@H]1CS[C@@H](CO)O1 | - | - | - | EC50 | MT-4 | - | >100 µg/mL |

An empty or dashed field is not shown. ECn: concentration that inhibits the pathogen or its effect by n%. Neighbouring rows are from separate reports.